Reference: the supplement of paper PMC9931576
Human monoclonal antibodies against the spike receptor-binding domain (heavy:light variable regions). IC50 against pseudoviruses bearing the spike of naturally observed variants; lower = stronger; >10 µg/ml means not reached at the top dose. No active / inactive call. The stated detection limit is 0.0005 µg/ml; values near or below 0.001 µg/ml lie at the floor of the assay.

B1: BD55-1694 (protein)
chain 1: QVQLVESGGGVVQPGRSLRLSCEASGFAFSTYPIHWVRQAPGKGLEWVAVISFDGSDKFYTDSVKGRFTISRDNSENTLYLQMNSLRVEDTAVYYCARAIPRATQKYYYSYGMDVWGQGTTVTVSS
chain 2: DIVMTQTPLSLSVTPGQPASMSCKSSQSLLHSNGRTYLYWYLQRPGQSPQLLIYEVSNRISGVPDRFSGSGSGTDFTLKISRVEAEDVGVYYCMQSIELPVTFGGGTKVEIK
B2: BD55-1499 (protein)
chain 1: QVQLQQWGAGLLKPSETLSLTCAVYGGSFTGYYWSWIRQPPGKGLEWIGEISHSGSTSYNPSLKSRVTISVDTSKNQFSLKLNSVTAADTAVYYCAADPAMVRGVIMGNWFDPWGQGTLVTVSS
chain 2: DIQMTQSPSSLSASVGDRVTITCRASQIISTYLNWYQQKPGKAPKLLIYATSSLQSGVPSRFSGSGSGTDFTLTISSLQPEDFATYYCQQSYVTPPYTFGQGTKLEIK
B3: BD55-1570 (protein)
chain 1: QVQLQESGPGLVKPSQTLSLTCTVSGDSFISGNFYWSWIRQHPGKGLEWIGYIYYSGSTYYNPSLKSRVNISIDRSKNQFSLQLDNVAAADTAVYYCVREVIARRSDGHYPDYFGIDVWGQGTTVTVSS
chain 2: EILMTQSPATLSVSPGQRATLSCRASQSITNNLAWYQHKPGQAPRLLIYGASTRATGIPARFSGSGSGTQFTLTISSLQSEDFAVYYCQQYNNLPPWTFGQGTKVEV
B4: BD55-1957 (protein)
chain 1: QVQLVQSGAEVKKPGSSVKVSCKASGGAFSSYPISWVRQAPGQGLEWMGRVIPILGIANYAQNFQGRVTITADKSSSTAYMELSSLRSEDTAVYYCARDQGYYGSSGSAYYFDYWGQGTLVTVSS
chain 2: QSVLTQPPSVSGAPGQRVTISCTGSSSNIGAGYDVHWYQQLPGTAPKLLIHANSNRPSGVPDRFSGSKSGTSASLAITGLQAEDEADYYCQSYDSSLSDSVFGGGTKLTVL
B5: BD-612 (protein)
chain 1: EVQLVESGGGLVQPGGSLRLSCAASGLTVSSNYMSWVRQAPGKGLEWVSVIYSGGSTFYADSVKGRFTISRDNSKNTLYLQMNSVRAEDTAVYYCARLPYGMDVWGQGTTVTVSS
chain 2: DIQMTQSPSSLSASVGDRVTITCQASQDVSKYLNWYQQKPGKAPKLLIHDASNLQTGVPSRFSGGGSGTDFTFTISSLQPEDIATYYCQQYDNLPVTFGGGTKVEIK
B6: DXP-604 (protein)
chain 1: EVQLVESGGGLIQPGGSLRLSCAASGIIVSSNYMTWVRQAPGKGLEWVSVIYSGGSTFYADSVKGRFTISRDNSKNTLYLQMSSLRAEDTAVYYCARDLGPYGMDVWGQGTTVTVSS
chain 2: DIQLTQSPSFLSASVGDRVTITCRASQGISSDLAWYQQKPGKAPNLLIYAASTLQSGVPSRFSGSGSGTEFTLTISSLQPEDFATYYCQQLNSDLYTFGQGTKLEIK
B7: BD55-1970 (protein)
chain 1: EVQLVESGGGLVQPGGSLRLSCVASEITVSSNYMNWVRQAPGKGLEWVSVIYSGGSTFYADSVKGRFTISRDSSKNTLFLQMNSLRVEDTAVYYCARDLDYYGMDVWGQGTTVTVSS
chain 2: DIQLTQSPSFLSASVGDRVTITCRASQGISNYLAWYQQKPGKAPKLLIYAASTLQSGVPSRFSGSGSGTEFTLTISSLQPEDFATYYCQQLNSYTYPFGQGTKLEIK
B8: BD-812 (protein)
chain 1: EVQLVQSGAEVKKPGESLKISCQFSEYKLISFWIAWVRQRPGKGLEWMGIIYPDDSDTKYSPSSQGQVTISADKSIRTAYLQWSSLMASDTAMYYCTSGSYYGTLDFWGQGTLVTVSS
chain 2: DIEITQSPSSLSASVGDRVTISCRASQDIRTYVAWYQQRPGKVPRLLIYAASTLQSGVPSRFSGRGSGTDFTLTISSLQPEDVATYYCQQYNSAPLTFGGGAKVEIK
B9: BD55-1831 (protein)
chain 1: QVQLQESGPGLVKPSQTLSLTCTVSGGSISNGDYYWSWIRQPPGKGLEWIGYIHNSGSTYKKLSLRSRLTISVDTSKNQFSLKLSSVTAADTAVYYCARTASPSGAWYFDFWGRGTLVTVSS
chain 2: SYVLTQPPSVSVAPGQTARITCGGNDIGSKNVHWYQQKPGQAPLLVVYDDTDRPSGIPERFSGSNSGNPATLTISRVEAGDEADYYCQVWDSSFDHVIFGGGTKLTVL
B10: BD-809 (protein)
chain 1: EVQLVQSGAEVKKPGESLKISCKGSGYSFTSNWIGWVRQMPGKGLEWMGIIYPYDSDTRYSPSFQGQVTISADKSISTAYLQWNSLKASDTAMYYCARRGDTQVIDFWGQGTLVTVSS
chain 2: SSELTQDPAVSVALGQTVRITCQGDSLRSYSASWYQQKPRQAPILVIYAKSNRPSGIPDRFSGSSSGNTASLTITGAQAEDEADYYCSSRDSSGNHYVFGTGTQVTVL
B11: BD55-1558 (protein)
chain 1: QVQLQESGPGLVKPSGTLTLSCAVSGAPIISANWWSWVRQRPGEGLEWIGEIYHTGATEYNPSLKRRVIVSLEESRNQFSLTLNSVTAADTAVYYCARVVSTALRYFDFWGQGTLVTVSA
chain 2: DIQMTQSPSSLSASIGGRVTISCRAGQDISKSLSWYQQKPGKAPQLLIYGASTLHYGVPSRFSATGSGTDFTLTISTLHPDDFATYYCQQTYATPRTFGQGTKVDLQ
B12: BD-813 (protein)
chain 1: VQLVESGGGLVQPGGSLRLSCAASEFIVSANYMSWVRQAPGKGLEWVSVIYSGGSTFYADSVKGRFTISRDNSKNTLYLQMNSLRVEDTAVYFCARFLPTYDYFDYWGQGTLVTVSS
chain 2: DIQMTQSPSSLSASVGDRVTITCRTSQSISTYLHWYQQKPGKAPKLLIYAASSLHSGVPSRFSGSGSGTHFVLTINGLQPEDFATYYCQHTDTTPLTFFGGGTKVEIK
B13: BD-826 (protein)
chain 1: QVQLQESGPGLVKPSETLSLTCNVSGGGSISRYNWNWIRQSAGKGLEWLGQMYSSGSTSFNSSLKSRVSMSLDTSKNQFSLMLTSVTAADTAVYYCVRVLPGLAENWFDSWGQGILVTVSS
chain 2: SYVLLQPPSVSVAPGKTATITCGGNNLGIKSVHWYQQKPGQAPLLVIYYDSDRPSGIPERFSGSHSGNTATLTISRVEGGDEADYYCQVWDTTDDHPLFGGGTKLTVL

Key:
Test in all cases: pseudovirus neutralization IC50; higher = weaker neutralization
[1] = target: SARS-CoV-2 Omicron BA.1 spike pseudovirus
Procedure: (§1)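 Single-round VSV luciferase pseudovirus mixed with antibody dilutions for 1 h and put on Huh-7 cells for about a day; IC50 from the dose curve.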

[2] = target: SARS-CoV-2 Omicron BA.2 spike pseudovirus
Procedure: as §1

[3] = target: SARS-CoV-2 Omicron BA.2.75 spike pseudovirus
Procedure: as §1

[4] = target: SARS-CoV-2 Omicron BA.5 spike pseudovirus
Procedure: as §1

[5] = target: SARS-CoV-2 Omicron BQ.1.1 spike pseudovirus
Procedure: as §1

[6] = target: SARS-CoV-2 Omicron XBB spike pseudovirus
Procedure: as §1

[7] = target: SARS-CoV-2 early D614G spike pseudovirus
Procedure: as §1

Binder	pseudovirus neutralization IC50 [1] [µg/mL]	pseudovirus neutralization IC50 [2] [µg/mL]	pseudovirus neutralization IC50 [3] [µg/mL]	pseudovirus neutralization IC50 [4] [µg/mL]	pseudovirus neutralization IC50 [5] [µg/mL]	pseudovirus neutralization IC50 [6] [µg/mL]	pseudovirus neutralization IC50 [7] [µg/mL]
B1	> 10	> 10	> 10	> 10	> 10	> 10	0.0017
B2	> 10	> 10	> 10	> 10	> 10	> 10	> 10
B3	> 10	> 10	> 10	> 10	> 10	> 10	3.92
B4	2.5	1.7	1.74	3.64	> 10	> 10	0.63
B5	5.48	3.07	> 10	4.87	> 10	> 10	0.03
B6	0.285	0.219	5.92	6.26	> 10	> 10	0.011
B7	> 10	> 10	> 10	> 10	> 10	> 10	0.00732
B8	3.1	0.0161	0.587	0.0143	> 10	> 10	0.002
B9	4.64	3.12	4.27	> 10	> 10	> 10	1.42
B10	1.31	3.14	3.96	3.27	1.66	1.72	0.455
B11	> 10	> 10	> 10	> 10	> 10	> 10	7.21
B12	> 10	> 10	> 10	> 10	> 10	> 10	0.007
B13	0.877	0.739	0.848	5.52	> 10	> 10	0.256
